# Data as given in PubChem BioAssay AID504761 (Drosophila RNAi Screening Center, 2011)
# Purpose: 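Insect host genes that dengue virus relies on to spread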 (primary screen)
# System: D.Mel-2 cells from Drosophila
# Reagent: long dsRNA against Drosophila genes
# Treatment: infection with dengue virus type 2; dose and infection time not stated
# Read-out: 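Cells stained for dengue envelope protein and imaged; percent of infected cells per well on duplicate plates, ranked by infection, with stained nuclei counted for cell number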
# Reading the numbers: infection score: higher = more virus-infected cells; cell count: higher = more cells in the well
# Hit rule: 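Low infection ranks in the two replicates (chance level up to 0.065) followed by a retest with a 1.5-fold or larger significant decrease, p below 0.05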
# Meaning of the calls: active = confirmed: knock-down lowers infection; inactive = not picked or not confirmed
# The screen tested about 22,000 reagents; this is an unselected part of those with a known target gene and a result. Of all reagents, 116 (0.52%) got an active call. 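Calls depend on retest data that are not deposited; infection was ranked per plate without normalising between plates; the unit of the infection score is not given.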 Raw values are not corrected between plates. A number with no mark means an inactive call. Reagents against one gene are numbered here. Not stated in the record: the amount of reagent, the time to read-out.
Target gene,reagent,"infection score, replicate 1","infection score, replicate 2","cell count, replicate 1","cell count, replicate 2"
SrpRalpha (Signal recognition particle receptor alpha),1,1.78,7.18,5902,6382
Mdr50 (Multi drug resistance 50),1,18,15.4,6575,4813
Mdr50 (Multi drug resistance 50),2,4.92,2.45,6255,6154
CG13607,1,6.61,3.91,6338,6195
CG13197,1,4.95,6.69,6459,7245
Taf6 (TBP-associated factor 6),1,9.53,29.2,4479,4423
eEF5 (eukaryotic translation elongation factor 5),1,18.4,2.24,5490,894
Os-C,1,7.38,1.45,6397,6625
Os-C,2,14.1,3.27,4942,6971
Dd (Dullard),1,6.05,1.75,6746,6817
CG3257,1,9.24,18.6,6409,5789
CG3257,2,13.5,6.95,6746,6659
mRpS7 (mitochondrial ribosomal protein S7),1,14.5,12,5504,5954
CG12420,1,15.1,5.08,6433,6416
CG13671,1,3.51,13.1,6245,5562
CG1142,1,24.2,3.31,5223,6472
CG1142,2,3.97,12.8,6040,6165
CrebA (Cyclic-AMP response element binding protein A),1,8.07,22.5,6146,6280
Art2 (Arginine methyltransferase 2),1,6.99,2.74,6607,7045

Single entries from above:
CG3257 #1, infection score, replicate 2 = 18.6
eEF5 (eukaryotic translation elongation factor 5), cell count, replicate 2 → 894
Under “cell count, replicate 2”, Os-C #2 reads 6971
Dd (Dullard), cell count, replicate 2 → 6817
For “infection score, replicate 1”, CG13671 shows 3.51
Value for mRpS7 (mitochondrial ribosomal protein S7) in “infection score, replicate 1”: 14.5

The listing continues:
Target gene,reagent,"infection score, replicate 1","infection score, replicate 2","cell count, replicate 1","cell count, replicate 2"
osy (oskyddad),1,4.61,14.8,6792,5703
osy (oskyddad),2,14.2,2.93,1294,649
osy (oskyddad),3,3.95,15.3,6781,4421
ct (cut),1,,11.6,419,3166
ct (cut),2,4.23,3.88,6097,6257
Cyp313a2 (Cytochrome P450 313a2),1,5.39,6.32,6937,7120
CG9646,1,5.91,5.69,6363,6347
Act57B (Actin 57B),1,18.6,19.1,6009,5688
Dso1 (Daisho1),1,14.2,8.54,2557,7182
Dso1 (Daisho1),2,13.8,3.16,2552,6515
CG5078,1,1.78,6.01,6302,6292
Idh3b (Isocitrate dehydrogenase 3b),1,1.13,3.9,6614,5996
Idh3b (Isocitrate dehydrogenase 3b),2,6.41,1.21,3776,1078
CG5062,1,6.22,8.32,6124,5928
mRpL20 (mitochondrial ribosomal protein L20),1,1.99,2.24,6283,5926
Fatp2 (Fatty acid transport protein 2),1,2.82,2.66,5811,6605
Fatp2 (Fatty acid transport protein 2),2,5.05,7.73,6438,6338
Fatp2 (Fatty acid transport protein 2),3,9.45,13.8,5617,5548
CG1677,1,32.6,37.4,2646,2755
CG18420,1,2.57,7.6,4633,5393
CG32119,1,13.3,6.43,1966,5565
CG32119,2,2.71,1.14,6459,6924
CG32119,3,4.41,,2130,271
CG16985,1,10.3,12.8,6516,6134
P58IPK,1,4.72,10.2,5741,5618
P58IPK,2,15.1,5.75,6451,5952
CG13332,1,28.8,16.7,4022,5120
CG4884,1,1.79,5.02,5910,5756
CG4884,2,6.14,3,6546,6472
CG4393,1,1.06,10.1,6677,4256
LManV (Lysosomal alpha-mannosidase V),1,17.1,30.6,6711,5498
LManV (Lysosomal alpha-mannosidase V),2,3.7,6.59,6616,6053
CG10465,1,9.59,20.8,6508,3842
CG14400,1,15.1,6.97,5638,7220
cv-d (crossveinless d),1,16.5,13.4,6437,6141
cv-d (crossveinless d),2,3.23,9.61,6682,6179
cv-d (crossveinless d),3,2.96,22.9,6284,4972
fkh (fork head),1,6.98,,6658,352
fkh (fork head),2,2.43,,782,393
